These results are taken from publication PMC6803667, “Binding site plasticity in viral PPxY Late domain recognition by the third WW domain of human NEDD4” (Scientific Reports, 2019).

The chains behind the UniProt entries cited, without tags or fusion partners. Residues count along the entry.
UniProt P46934, 834-878 limits assumed: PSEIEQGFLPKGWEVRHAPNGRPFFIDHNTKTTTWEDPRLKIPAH
UniProt P46937, 165-209 limits assumed: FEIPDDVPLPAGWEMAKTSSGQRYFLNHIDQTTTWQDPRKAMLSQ
UniProt P46937, 228-271 limits assumed: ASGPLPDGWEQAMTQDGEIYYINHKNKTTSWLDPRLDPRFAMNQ

Experiment [1] concerns the target T1, hNEDD4-WW3 (Homo sapiens, UniProt P46934). Nature of the experiment: Titration followed by fluorescence spectroscopy, hNEDD4-WW3. The following applies: 20 mM sodium phosphate pH 7.0, 25 °C. It is filed as binding.
The next experiment concerns the target hYAP-WW1 (Homo sapiens, UniProt P46937). Nature of the experiment: ITC, direct titration of peptide ligands into YAP-WW1. Conditions: 25 °C, 20 mM sodium phosphate pH 7.0, n. b. = no binding.
Experiment [2] deals with T1, hNEDD4-WW3. The experiment can be described thus: ITC, direct titration of peptide ligands into hNEDD4-WW3. Conditions: 25 °C, 20 mM sodium phosphate pH 7.0, n. b. = no binding, b64 also names displacement experiments for HTLV1-ter and Ebola-ter. (In ITC the heat of successive injections is recorded.)
For a further experiment, the target named is hYAP-WW2 (Homo sapiens, UniProt P46937). Nature of the experiment: ITC, direct titration of peptide ligands into YAP-WW2. The following applies: 25 °C, 20 mM sodium phosphate pH 7.0, n. b. = no binding.

The match of structure and compound is tentative.

As to `CC[C@H](C)[C@H](NC(C)=O)C(=O)N[C@@H](CC(C)C)C(=O)N1CCC[C@H]1C(=O)N[C@H](C(=O)N[C@@H](C)C(=O)N1CCC[C@H]1C(=O)N1CCC[C@H]1C(=O)N[C@@H](CCC(=O)O)C(=O)N[C@@H](Cc1ccc(O)cc1)C(N)=O)[C@@H](C)O`, the “binding detected by fluorescence spectroscopy” value at hNEDD4-WW3 [1] is “no binding could be detected”. Besides, the Kd result at hYAP-WW1 is on record as “n. b”; on hNEDD4-WW3 [2], “n. b”; at hNEDD4-WW3 [2] (listed as Ebolater), “no binding could be detected”; on hYAP-WW2, “n. b”.
